PubChem BioAssay AID504761 – Drosophila RNAi Screening Center | 2011
Assay: 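Fly genes whose silencing reduces dengue virus type 2 infection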 (primary screen). Cell system: D.Mel-2 cells from Drosophila. Reagent: long dsRNA against Drosophila genes. Challenge: infection with dengue virus type 2; dose and infection time not stated. Detection: 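Cells stained for dengue envelope protein and imaged; percent of infected cells per well on duplicate plates, ranked by infection, with stained nuclei counted for cell number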. Direction: infection score: higher = more virus-infected cells. Hit rule: 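Low infection ranks in the two replicates (chance level up to 0.065) followed by a retest with a 1.5-fold or larger significant decrease, p below 0.05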. Calls: active = confirmed: knock-down lowers infection; inactive = not picked or not confirmed.
The deposit covers about 22,000 reagents; this is a random part of those that have a named target and a result. In the full data, 116 (0.52%) were called active. 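Calls depend on retest data that are not deposited; infection was ranked per plate without normalising between plates; the unit of the infection score is not given.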 Unmarked entries are inactive. Names joined by + are all predicted targets of the reagent. Further read-outs or replicates are left out here. The record does not give: the amount of reagent, the time to read-out.

gene	DRSC id	infection score, replicate 1
CG12480	DRSC19460	20.1
CG12480	DRSC27987	29.8
CG34056	DRSC08374	2.18
CG7841	DRSC10922	5.88
cyp33	DRSC07600	7.98
Obp18a	DRSC19736	4.81
CG34435	DRSC18086	2.36
CG14079	DRSC10083	3.1
disco	DRSC20323	7.55
disco	DRSC25113	5.99
CG13501	DRSC04146	6.65
CG4338	DRSC15564	17.5
CG10140	DRSC09704	0.71
CG10140	DRSC26220	6.79
CG32006	DRSC21768	8.59
CG32006	DRSC28120	20.8
CG13994	DRSC02326	5.4
CG34431	DRSC29884	10.4
CG13047	DRSC09928	0.46
CG13047	DRSC25091	2.89
Rad1 + Sws1	DRSC00778	2.46
rush	DRSC18568	3.47
CG14285	DRSC14766	1.58
CG11686	DRSC14350	1.07
pre-mod(mdg4)-AD + mod(mdg4) + pre-mod(mdg4)-X + 3 more	DRSC16328	5.38
tsr	DRSC04718	8.76
TfIIEalpha	DRSC11303	8.54
TfIIEalpha	DRSC27748	22.4
CG32700	DRSC17857	5.87
CG32700	DRSC17858	0.9
osp	DRSC01409	2.55
osp	DRSC03585	12.4
Sce	DRSC23442	2.39
LManIV	DRSC03222	2.76
LManIV	DRSC27811	12.4
CG9300	DRSC11064	11.2
Ssk	DRSC10756	10.2
CG7786	DRSC07045	12.3
CG7786	DRSC26604	1.7

Ordered by “infection score, replicate 1” (highest first): 6 of the entries above.
gene	DRSC id	infection score, replicate 1
CG32006	DRSC28120	20.8
CG34431	DRSC29884	10.4
CG13994	DRSC02326	5.4
CG13047	DRSC25091	2.89
Rad1 + Sws1	DRSC00778	2.46
CG13047	DRSC09928	0.46
